Laboratory results published in patent publication US20170028016A1, “METHODS OF TREATMENT OF C. DIFFICILE SPORES WITH RAMOPLANIN” (Nanotherapeutics, Inc., priority 2014, published 2017).

System: Streptococcus salivarius
Assay: Ramoplanin bioassay: zone of inhibition on S. salivarius lawns, unbound ramoplanin in supernatants of exposed spores

Substance: ramoplanin
- bioassay zone of inhibition over time (D0 to D28 after 30 min exposure): decline in the bioassay's zone of inhibition over time
- stability of unbound ramoplanin concentrations recovered from spores (spores exposed to 300 and 600 μg/mL for 30 min, D1-D28): stable
